{"source": "PubChem BioAssay AID1224833 (University of Georgia, 2016)", "test": "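Human genes whose knock-down alters rotavirus replication in monkey cells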 (primary screen)", "cell system": "monkey MA104 kidney cells", "reagent": "siRNA pool against human genes, 50 nM", "duration": "48 h knock-down before infection; read 24 h after infection", "treatment": "infection with rotavirus strain RV3 two days after transfection; infectious dose for this stage not given", "measurement": "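Rotavirus antigen per well by fluorescent immunoassay, normalised to non-targeting control wells on each plate and given as a standard z-score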", "reading the numbers": "z-score vs non-targeting control: higher = more rotavirus replication than with non-targeting control", "active means": "In these data the active calls have z-score vs non-targeting control at about -1 or lower, or at about 1 or higher", "calls": "active = z-score beyond 1 either way; inactive = z-score within 1 of zero", "note": "The whole screen tested about 12,000 reagents; this is a part drawn at random. About 5,600 of them (46%) were called active. 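Active calls cover z-scores past 1 in both directions, so they include lowered as well as raised rotavirus replication.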"}
{"target": "LSM3", "z-score vs non-targeting control": -1.1, "outcome": "active"}
{"target": "PCYT1A", "z-score vs non-targeting control": -1.04, "outcome": "active"}
{"target": "RDH11", "z-score vs non-targeting control": -1.59, "outcome": "active"}
{"target": "LZTS1", "z-score vs non-targeting control": -2.17, "outcome": "active"}
{"target": "PFN1", "z-score vs non-targeting control": -0.155, "outcome": "inactive"}
{"target": "AHR", "z-score vs non-targeting control": -1.78, "outcome": "active"}

Reagents listed so far with an active call, once more:
{"target": "LSM3", "z-score vs non-targeting control": -1.1, "outcome": "active"}
{"target": "PCYT1A", "z-score vs non-targeting control": -1.04, "outcome": "active"}
{"target": "RDH11", "z-score vs non-targeting control": -1.59, "outcome": "active"}
{"target": "LZTS1", "z-score vs non-targeting control": -2.17, "outcome": "active"}
{"target": "AHR", "z-score vs non-targeting control": -1.78, "outcome": "active"}

The listing continues:
{"target": "NADK2", "z-score vs non-targeting control": 0.784, "outcome": "inactive"}
{"target": "EFNB1", "z-score vs non-targeting control": -1.99, "outcome": "active"}
{"target": "EEIG1", "z-score vs non-targeting control": 1.65, "outcome": "active"}
{"target": "OR5AP2", "z-score vs non-targeting control": -0.832, "outcome": "inactive"}
{"target": "SLTM", "z-score vs non-targeting control": -0.885, "outcome": "inactive"}
{"target": "PTTG1", "z-score vs non-targeting control": -1.01, "outcome": "active"}
{"target": "MMAA", "z-score vs non-targeting control": -0.923, "outcome": "inactive"}
{"target": "SH2D1A", "z-score vs non-targeting control": -0.807, "outcome": "inactive"}
{"target": "PBLD", "z-score vs non-targeting control": 0.506, "outcome": "inactive"}
{"target": "ABCA9", "z-score vs non-targeting control": 1.44, "outcome": "active"}
{"target": "COMMD4", "z-score vs non-targeting control": 0.319, "outcome": "inactive"}
{"target": "SLC25A24", "z-score vs non-targeting control": -1.65, "outcome": "active"}
{"target": "NAALADL2", "z-score vs non-targeting control": 0.614, "outcome": "inactive"}
